A mixed list of measured activities; the numbers were collected in NIAID ChemDB.

Common to all: growth or infection tests; species: Toxoplasma gondii

A number after MIC or MFC names an inhibition level or a share of isolates. Two numbers with a dash give a range or band. Blank or dashed fields: not listed here. ECn is the concentration giving n% inhibition of infection, replication or growth. Lines come from different laboratories, so protocols vary. Percent inhibition refers to the dose given; in toxicity tests it is the harm to the cells.

structure | endpoint | strain or isolate | dose | cell line | value
N#Cc1ccc(CSc2ncnc3c2ncn3[C@@H]2O[C@H](CO)[C@@H](O)[C@H]2O)cc1 | inhibition | RH adenosine kinase-deficient | 5 µM |  | 0%
COc1ccccc1NC(=S)NC(=O)c1ccccc1COc1ccc(Cl)cc1 | EC50 | RH beta-gal |  | Human foreskin fibroblasts (HFF) | 99 µM
CCN(CC)c1ccc(C(=O)NS(=O)(=O)c2ccccc2O)cc1 | MIC50 |  |  | Human foreskin fibroblasts | >1 µM
CC(C)(C)c1ccc(CSc2ncnc3c2ncn3[C@@H]2O[C@H](CO)[C@@H](O)[C@H]2O)cc1 | inhibition | RH adenosine kinase-deficient | 10 µM |  | 0%
N#CC(c1ccc(Cl)cc1)c1c(Cl)cc(-n2ncc(=O)[nH]c2=O)cc1Cl | inhibition | RH | 0.0025 µg/mL |  | 49.7–64%
O=C(NC(=S)Nc1cccc(Br)c1)c1ccccc1COc1ccc(Cl)cc1 | EC50 | RH beta-gal |  | Human foreskin fibroblasts (HFF) | 59 µM
O=C(NC(=O)c1ccccc1O)c1ccc(F)cc1 | MIC90 |  |  | Human foreskin fibroblasts | >1 µM
O=C(NC(=S)Nc1ccccc1Cl)c1ccccc1COc1ccc(Cl)cc1 | EC50 | RH beta-gal |  | Human foreskin fibroblasts (HFF) | 83 µM
CN1CCC(c2cc(-c3ccncc3)c(-c3ccc(F)cc3)[nH]2)CC1 | EC50 | RH (WILD TYPE) |  |  | 0.2 µM
CCN(CC)c1ccc(C(=O)NC(=O)c2ccccc2)cc1 | MIC90 |  |  | Human foreskin fibroblasts | >0.25 µM
O=C(NC(=S)Nc1ccc(Cl)cc1Cl)c1ccccc1COc1ccc(Cl)cc1 | EC50 | RH beta-gal |  | Human foreskin fibroblasts (HFF) | 97 µM
O=C(O)CCC(=O)Nc1ccc(C(=O)NC(=O)c2ccccc2O)cc1 | MIC50 |  |  | Human foreskin fibroblasts | >1 µM
Cc1ccnc(NS(=O)(=O)c2ccc(N)cc2)n1 | EC90 | RH |  |  | 229 µg/mL
COc1ccc(OCc2ccccc2C(=O)NC(=S)Nc2ccc3ccccc3c2)cc1 | EC50 | RH beta-gal |  | Human foreskin fibroblasts (HFF) | 83 µM
CCN(CC)c1ccc(C(=O)NS(=O)(=O)c2ccccc2OC)cc1 | MIC90 |  |  | Human foreskin fibroblasts | >0.25 µM

2 of the rows above, restated:

CCN(CC)c1ccc(C(=O)NS(=O)(=O)c2ccccc2OC)cc1 ; endpoint: MIC90 ; cell line: Human foreskin fibroblasts ; value: >0.25 µM
CN1CCC(c2cc(-c3ccncc3)c(-c3ccc(F)cc3)[nH]2)CC1 ; endpoint: EC50 ; strain or isolate: RH (WILD TYPE) ; value: 0.2 µM